According to publication PMC3319533:
Tags and fusion partners may be left off the protein sequences shown. For some assays here: Construct, isoform or probe ends are uncertain for at least one entry. For some assays here: At least one verdict was read from the data and is not stated in words by the source.

Tests used:
[1] = molecular target: T1, CpxR (CpxR_KP) (Klebsiella pneumoniae NTUH-K2044) (UniProt A0ACD7TV00); test: EMSA; conditions: CpxR 46-466 nM, poly(dI-dC); 10 mM Tris-HCl pH 8.0, 2 mM EDTA, 0.5 mM DTT, 50 mM NaCl, 10% glycerol, 1 ug poly(dI-dC); 5% native PAGE; temperature not stated; recombinant protein; residues 1-232; protein details: N-terminal His6 (pET-28c); label: 32P end label; probe letters rebuilt from the primers and the genome
T1 sequence (looked up): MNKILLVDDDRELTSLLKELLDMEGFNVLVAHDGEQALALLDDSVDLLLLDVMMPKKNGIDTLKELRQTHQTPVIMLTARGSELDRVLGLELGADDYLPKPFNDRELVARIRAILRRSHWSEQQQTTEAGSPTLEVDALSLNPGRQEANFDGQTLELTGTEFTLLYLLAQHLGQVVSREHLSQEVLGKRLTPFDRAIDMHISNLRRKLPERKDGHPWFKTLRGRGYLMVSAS

[2] = molecular target: T1, CpxR (CpxR_KP) (Klebsiella pneumoniae NTUH-K2044); test: competition with a labelled probe; conditions: 10-fold excess unlabeled ompC promoter as specific competitor; 10 mM Tris-HCl pH 8.0, 2 mM EDTA, 0.5 mM DTT, 50 mM NaCl, 10% glycerol, 1 ug poly(dI-dC); 5% native PAGE; temperature not stated; recombinant protein; residues 1-232; protein details: N-terminal His6 (pET-28c); label: 32P end label; probe letters rebuilt from the primers and the genome

GGCCTAATTGATTGATTAATAGTCGTTAGGGAATCATTAGCCGTAGCACAGATAAATTAAAGTTGTGTAAAGAAGGGTAAAAAAAACCGGATGCGAGGCATCCGGTTGAAATAGGGGTAAACAGACATTCAGAACTGAATGACGGTAATAAATAAAGTTAATGATGATAGCGACTCTTATTTTAGCCACCAATGAACATTTTGTTTTACCATTCAGTGCTATAGATATGTTGTCGTCTATCACTTTGATTATAAAAGGTTAAATATTTTTTTTGATGATTAGTGCGTATTTCCCTGACCATTTTGCGGTGAAAAAAGTTCCGCTGAATTTACAAATTGAAACATCTTGTGGGAACTTTGAAACATCTTAGAAGTTTTAGTATCATATTCTTGTTGGATTATTCTGCATTTTGCAGCACAATGAAATAGCCGACTGATTAGAAGGGTAATCAGTAAGCAGTGGCATAATAAAAGGCATATAACAAACAGAGGGTTAATAAC (double strand) [ompC promoter]
binding result [1]: binds | binding result [2]: binds
